Reference: article PMC11400957, “Structural and functional characterization of the IpaD π-helix reveals critical roles in DOC interaction, T3SS apparatus maturation, and Shigella virulence” (The Journal of Biological Chemistry, 2024)

Experiments:
[1] = molecular target: IpaD^WT (full-length) (Shigella flexneri, UniProt P18013, DEL148-148); conditions: read-out: Kd (μM ± SD) ^a; labelled compound (25 nM FITC-DOC); PBS pH 7.4, 25 °C; single-site model
[2] = molecular target: IpaD^WT (full-length) (Shigella flexneri, UniProt P18013); experiment: fluorescence polarization, direct titration; assay type: binding; conditions: labelled compound (25 nM FITC-DOC); PBS pH 7.4, 25 °C; single-site model; read-out: Kd (μM ± SD) ^a
Description: fluorescence polarization, direct titration on IpaD^WT (full-length)

[3] = molecular target: IpaD^WT (full-length) (Shigella flexneri, UniProt P18013, DEL149-149); conditions: read-out: Kd (μM ± SD) ^a; labelled compound (25 nM FITC-DOC); PBS pH 7.4, 25 °C; single-site model

FITC-DOC
Kd [1]: 4.9 ± 1 µM | Kd [2]: 4.7 ± 1 µM | Kd [3]: 5.2 ± 1 µM
